Taken from: PubChem BioAssay AID1259414 (Drosophila RNAi Screening Center, 2018)

- Test: 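Host factors increasing or decreasing Wolbachia levels in cultured fly cells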 (primary screen)
- System: Drosophila JW18 cells infected with Wolbachia
- Reagent: long dsRNA against Drosophila genes, 0.25 µg dsRNA per well of a 384-well plate
- Time to read-out: 5 days
- Conditions: cells persistently infected with Wolbachia before knock-down; no added drug
- Detection: 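Automated imaging of bacterial rRNA staining divided by host cell count, reported as plate-normalised robust z-score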
- Direction: Wolbachia per cell robust z: higher = more Wolbachia per host cell than the plate typical
- Hit rule: 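Hit when robust z is 1.5 or more, or -1.5 or less, in at least two of three replicates; excludes dsRNAs with several or no targets, genes not expressed in JW18 and well A1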
The screen tested about 24,000 reagents; below is a random part of those that have a named target and a result. Over the whole deposit, about 1,210 (5%) are marked active. 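Inactive calls also include excluded dsRNAs with several or no targets, genes unexpressed in JW18, and well A1, regardless of score.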 Unmarked entries are inactive. A plus sign joins genes that one reagent is predicted to hit.

no.	gene	amplicon	Wolbachia per cell robust z, rep 1	Wolbachia per cell robust z, rep 2	Wolbachia per cell robust z, rep 3
1	CG14655	DRSC12241	0.0489	-0.0305	1.36
2	CG14655	DRSC29900	-0.479	-0.00105	1.29
3	Vha68-2	DRSC02721	-0.373	-5.75	-0.102
4	Vha68-2	DRSC28637	1.07	1.95	0.771
5	CG4712	DRSC06882	-0.267	-4.15	0.486
6	CG11786	DRSC14389	-1.41	-1.66	-1.18
7	zetaTry	DRSC07720	-1.68	1.01	0.667
8	CG32270 + CG32269	DRSC08195	0.0239	1.29	0.395
9	Got2	DRSC00643	-0.673	-8.69	-1.23
10	CG12609	DRSC19473	1.32	-0.4	0.107
11	Gr98b	DRSC21675	-0.896	-0.259	-0.333
12	CG15418 + Ugt36A1	DRSC00432	1.03	1.13	-0.995
13	CG15418 + Ugt36A1	DRSC24109	0.255	0.596	0.318
14	CR34285	DRSC38627	-0.575	-0.82	-2.7
15	CG8329	DRSC10978	-1.07	-0.262	-3.89
16	CG8329	DRSC26746	0.644	-1.04	-0.572

Taken from above:
For “Wolbachia per cell robust z, rep 3”, CG11786 [DRSC14389] reads -1.18
Result of Vha68-2 [DRSC02721] in “Wolbachia per cell robust z, rep 1”: -0.373
For “Wolbachia per cell robust z, rep 3”, CG15418 + Ugt36A1 [DRSC00432] is entered as -0.995
Value for CG12609 [DRSC19473] in “Wolbachia per cell robust z, rep 3”: 0.107

The list goes on:
no.	gene	amplicon	Wolbachia per cell robust z, rep 1	Wolbachia per cell robust z, rep 2	Wolbachia per cell robust z, rep 3
17	Scgdelta	DRSC18544	-1.45	-2.45	0.0899
18	Rab10	DRSC20572	0.671	0.541	0.545
19	Rab10	DRSC25270	-0.669 (active)	2.2	1.98
20	vap	DRSC20275	-1.73	-0.462	1.33
21	Rnf11	DRSC21574	0.632	0.671	0.975
22	Rnf11	DRSC27053	0.562	0.716	1.02
23	CG5466	DRSC23002	-0.757	0.265	0.27
24	CG5466	DRSC25795	-0.487	1.7	0.186
25	Kah	DRSC07887	-0.318	0.887	0.39
26	Kah	DRSC08515	0.6	0.282	-0.599
27	Kah	DRSC25608	-0.784	-0.762	-0.12
28	CG30105	DRSC05668	0.0316	0.254	0.0589
29	CG30105	DRSC29034	0.844	0.379	0.661
